Anti-infective test results gathered from many reports (values: NIAID ChemDB through PubChem).

All rows: growth or infection tests

Percent inhibition refers to the dose given; in toxicity tests it is the harm to the cells.

compound	read-out	strain	conditions	agent	dose	method	cell line	value
CO[C@@H]1[C@@H](O[C@@H]2O[C@H](C)[C@@H](O[C@H]3C[C@@](C)(O)[C@@H](O)[C@H](C)O3)[C@H](N(C)C)[C@H]2O)[C@@H](CC=O)C[C@@H](C)[C@@H](O[C@H]2CC[C@H](N(C)C)[C@H](C)O2)/C=C/C=C/C[C@@H](C)OC(=O)C[C@H]1O	EC50			Toxoplasma gondii				<4 µg/mL
Cc1cn([C@H]2C[C@H](N=[N+]=[N-])[C@@H](CO)O2)c(=O)[nH]c1=O	inhibition	LAV-2		HIV-2	10 µM	virus yield	CEM	99%
CCOC1c2cc(OC)c(OC)cc2-c2ccc3cc4c(cc3c2N1C)OCO4	MIC	JHY6-1C		Saccharomyces cerevisiae				3.12 µg/mL
Cc1cn([C@H]2C[C@H](N=[N+]=[N-])[C@@H](COP(=O)(O)OC[C@H]3OC(O)[C@H](O)[C@@H](O)[C@@H]3O)O2)c(=O)[nH]c1=O	inhibition	LAV-Bru	22 d	HIV-1	0.2 µM	RT activity	CEM	56%
Nc1nc2c(ncn2CCC(CO)CO)c(=O)[nH]1	EC50	BVaraU-resistant		Varicella zoster virus		plaque count	HEL	16.4 µg/mL
C=CC(C)(C)C1=Cc2cc3c(cc2OC1=C)OC(C(C)(C)OC(C)=O)C3	EC50			Epstein-Barr virus		PCR	Akata-Bx1	2.94 µM
Cc1cc(=O)c2c(O)c3c(O)cc(O)c4c5c(O)cc(O)c6c(O)c7c(=O)cc(C)c8c1c2c(c34)c(c65)c78	EC50	NEW YORK		West Nile virus		cytopathic effect	VERO	>50 µg/mL
COc1ccc(-c2oc3c4c(cc(O)c3c(=O)c2O)OC(C)(C)CC4)cc1	EC50	MAC251		SIV		PCR	PBMC	16.6 µM
CC[C@@]1(O)C(=O)OCc2c1cc1n(c2=O)Cc2cc3ccccc3nc2-1	MIC	Mutant ΔERG6 ΔTOP1		Saccharomyces cerevisiae				>100 µg/mL
CCCCC1=Nc2c(cc(NC(=O)OCC)nc2N)NC1C	inhibition			Encephalitozoon intestinalis	0.01 µg/mL		RK-13	19.1%
Nc1ccn(C[C@@H](CO)OCP(=O)(O)O)c(=O)n1	EC50	BVDU-resistant		Varicella zoster virus		plaque count	HEL	0.054 µg/mL
CC[C@@]1(O)C(=O)OCc2c1cc1n(c2=O)Cc2cc3c(N)c4c(cc3nc2-1)OCO4	MIC	Mutant ΔERG6		Saccharomyces cerevisiae				>100 µg/mL
NC(=O)c1csc([C@@H]2O[C@H](CO)[C@@H](O)[C@H]2O)n1	EC50	NEW YORK		West Nile virus		cytopathic effect	VERO	307 µg/mL
COc1cc2c[n+](C)c3c4cc5c(cc4ccc3c2cc1OC)OCO5	MIC	JHY6-1C		Saccharomyces cerevisiae				6.25 µg/mL
O=c1[nH]cnc2c([C@@H]3O[C@H](CO)[C@@H](O)[C@H]3O)[nH]nc12	EC50	NEW YORK		West Nile virus		cytopathic effect / visual reading	VERO	>25 µg/mL
C[C@H]1COc2c(N3CCN(C)CC3)c(F)cc3c(=O)c(C(=O)O)cn1c23	MIC90	38 strains (ampicillin-susceptible)		Haemophilus influenzae				0.015 µg/mL
COc1cc(Cc2cnc(N)nc2N)cc(OC)c1Br	MIC	ATCC 19423		Mycobacterium ulcerans				4 µg/mL
Nc1ccnc2c1ncn2[C@H]1C=C[C@@H](OCP(=O)(O)O)O1	EC50	Chicago (type 1)		Adenovirus		cytopathic effect		180 µg/mL
O=C(OC1Cc2c(O)cc(O)cc2OC1c1cc(O)c(O)c(O)c1)c1cc(O)c(O)c(O)c1	MIC50	Clinical isolate 1		Candida tropicalis		broth dilution		>128 µg/mL
N#Cc1c(Br)n([C@@H]2O[C@H](CO)[C@@H](O)[C@H]2O)c2ncnc(N)c12	EC50	NEW YORK		West Nile virus		cytopathic effect / visual reading	VERO	>10 µg/mL
Nc1ccn(C[C@@H](CO)OCP(=O)(O)O)c(=O)n1	EC90	13306 (TYPE 8)		Adenovirus		virus yield		0.2 µg/mL
COc1ccc(C(F)(F)F)cc1NCc1cnc2nc(N)nc(N)c2c1C	inhibition			Encephalitozoon intestinalis	1 µg/mL		RK-13	78%
NC(=O)c1nc(F)c[nH]c1=O	EC50	H1N1 NWS/33		Influenza A virus		plaque count	MDCK	0.091 µg/mL
CN(C)c1cc(NC(=O)CNC(C)(C)C)c(O)c2c1C[C@H]1C[C@H]3[C@H](N(C)C)C(=O)C(C(N)=O)=C(O)[C@@]3(O)C(=O)C1=C2O	MIC	V44		Mycobacterium massiliense		broth dilution		2 µg/mL
NC1CCN(c2nc3c(cc2F)c(=O)c(C(=O)O)cn3-c2ccc(F)cc2F)C1	MIC50	25 strains (ofloxacin-resistant)		Staphylococcus aureus				32 µg/mL
CN[C@@H]1[C@H](O[C@H]2[C@H](O[C@H]3[C@H](O)[C@@H](O)[C@H](N=C(N)N)[C@@H](O)[C@@H]3N=C(N)N)O[C@@H](C)[C@]2(O)C=O)O[C@@H](CO)[C@H](O)[C@H]1O	zone			Pseudomonas aeruginosa	250 µg/disc	agar diffusion		30 mm
C#CC[C@@H](C(=O)N[C@H](/C=C/C(=O)OCC)C[C@@H]1CCNC1=O)n1cccc(NC(=O)c2cc(C)on2)c1=O	inhibition	Serotype 45		Rhinovirus	0.094 µM	cytopathic effect / XTT	H1-HELA	90%
CCCN1CCN(c2cc(=O)c3nc4c(oc3c2)c2c(=O)c3c(O)c(C)c5c(c34)=C(O)[C@@](C)(O/C=C/[C@H](OC)[C@@H](C)[C@@H](OC(C)=O)[C@H](C)[C@H](O)[C@H](C)[C@@H](O)[C@@H](C)/C=C/C=C(/C)C(=O)N2)O5)CC1	MIC90	16 strains (methicillin- quinolone-resistant)		Staphylococcus aureus				0.016 µg/mL
Nc1ccn([C@@H]2C[C@H](CO)[C@@H](O)[C@H]2O)c(=O)n1	EC50			Influenza C virus		cytopathic effect	MDCK	4.5 µg/mL
OC(Cn1cncn1)(Cn1cncn1)c1ccc(F)cc1F	MIC	YL 318		Candida albicans		broth dilution		512 µg/mL
COc1cc(Cc2cnc(N)nc2N)cc(OC)c1OCCCNc1ccc(S(=O)(=O)c2ccc(N)cc2)cc1	MIC	ATCC 35840		Mycobacterium ulcerans				1 µg/mL
Nc1ncnc2c1ncn2C[C@H](O)CO	EC50			Vesicular stomatitis virus		cytopathic effect	ESM	15 µg/mL
Nc1ncnc2c1ncn2CCOCP(=O)(O)O	EC90			Duck hepatitis B virus		hybridisation	Primary duck hepatocytes	0.36 µM
CC(=O)N1CCN(c2ccc(OC[C@H]3CO[C@](Cn4ccnc4)(c4ccc(Cl)cc4Cl)O3)cc2)CC1	MIC	Isogenic isolate 13 Erg11 (4-5X) R467K		Candida albicans				0.03 µg/mL
C[C@H](Cn1cnc2c(N)ncnc21)OCP(=O)(O)O	EC90			Duck hepatitis B virus		hybridisation	Primary duck hepatocytes	0.28 µM
Cc1cn([C@H]2C[C@H](N=[N+]=[N-])[C@@H](CO)O2)c(=O)[nH]c1=O	inhibition	LAV-Bru	22 d	HIV-1	1 µM	RT activity	CEM	66%
CCOC(=O)Nc1cc2c(nc(-c3ccccc3)c3nnnn32)c(NC(c2ccccc2)c2ccccc2)n1	inhibition			Encephalitozoon intestinalis	1 µg/mL		RK-13	64.6%
COc1c(N2CCNC(C)C2)c(F)cc2c(=O)c(C(=O)O)cn(C3CC3)c12	MIC90	25 strains (ofloxacin-resistant)		Staphylococcus aureus				16 µg/mL
CO[C@H]1/C=C/O[C@@]2(C)Oc3c(C)c(O)c4c(=O)c(c5oc6cc(N7CCN(CC(C)C)CC7)cc(=O)c6nc5c4c3=C2O)NC(=O)/C(C)=C\C=C\[C@H](C)[C@H](O)[C@@H](C)[C@@H](O)[C@@H](C)[C@H](OC(C)=O)[C@@H]1C	MIC	Terajima		Staphylococcus aureus				0.0039 µg/mL
Nc1nc2c(ncn2COC(CO)CO)c(=O)[nH]1	EC50	PMEA-resistant		Varicella zoster virus		plaque count	HEL	0.36 µg/mL
Cc1cn([C@H]2C[C@H](N=[N+]=[N-])[C@@H](COP(=O)(O)OC[C@H]3OC(O)[C@@H](O)[C@@H](O)[C@@H]3O)O2)c(=O)[nH]c1=O	inhibition	LAV-Bru	14 d	HIV-1	1 µM	RT activity	U-937	0%
O=c1cnn([C@@H]2O[C@H](CO)[C@@H](O)[C@H]2O)c(=O)[nH]1	EC50	New York isolates		West Nile virus		cytopathic effect	VERO	0.9 µg/mL
NC(=O)c1[nH]nc([C@@H]2O[C@H](CO)[C@@H](O)[C@H]2O)c1O	EC50	NEW YORK		West Nile virus		virus yield	MA-104	<0.3 µg/mL
NC(=O)c1ncn([C@@H]2O[C@H](CO)[C@@H](O)[C@H]2O)c1O	EC50	TYPE A/NS-100		Respiratory syncytial virus		plaque count	HeLa	2.6 µg/mL
C[C@@H]1CN(c2c(F)c(N)c3c(=O)c(C(=O)O)cn(C4CC4)c3c2F)C[C@H](C)N1	MIC50	25 strains (ofloxacin-resistant)		Staphylococcus aureus				8 µg/mL
C[C@H](Cc1ccc(O)c(O)c1)[C@@H](C)Cc1ccc(O)c(O)c1	MIC50	ATCC 10231		Candida albicans		broth dilution		125 µg/mL
CO[C@H]1[C@@H](OC(=O)/C=C/C=C/C=C/C=C/C(=O)O)CC[C@@]2(CO2)[C@@H]1[C@@]1(C)O[C@@H]1CC=C(C)C	inhibition			Vittaforma corneae	0.0005 µg/mL		RK-13	38.4%
CC[C@H]1OC(=O)[C@H](C)[C@@H](O[C@H]2C[C@@](C)(OC)[C@@H](O)[C@H](C)O2)[C@H](C)[C@@H](O[C@@H]2O[C@H](C)C[C@H](N(C)C)[C@H]2O)[C@](C)(OC)C[C@@H](C)C(=O)[C@H](C)[C@@H](O)[C@]1(C)O	MIC	X74		Mycobacterium abscessus		broth dilution		2 µg/mL
O=C(O)P(=O)(O)O	EC50	OKA		Varicella zoster virus		plaque count	HEL	12 µg/mL
CO[C@@H]1[C@H](OC(=O)NC(=O)CCl)CC[C@]2(CO2)[C@H]1[C@@]1(C)O[C@@H]1CC=C(C)C	inhibition			Encephalitozoon intestinalis	0.0001 µg/mL		RK-13	44.5%
Nc1nc2c(ncn2CCOCP(=O)(O)O)c(=O)[nH]1	inhibition	CC		Measles virus	12 µg/mL	virus yield		90%
CC[C@]1(O)C(=O)OCc2c1cc1n(c2=O)Cc2cc3cc4c(cc3nc2-1)OCO4	MIC	Mutant ΔERG6		Saccharomyces cerevisiae				>100 µg/mL
CCOC(=O)Nc1cc2oc(=O)c(-c3ccccc3)nc2c(N)n1	inhibition			Encephalitozoon intestinalis	0.01 µg/mL		RK-13	6.4%
c1cc(CN2CCCNCCNCCCNCC2)ccc1CN1CCCNCCNCCCNCC1	inhibition	SW38 CLADE C R5		HIV-1	0.5 µM	p24	PBMC	0%
CC[C@@]1(OC(=O)CN)C(=O)OCc2c1cc1n(c2=O)Cc2cc3c(N)c4c(cc3nc2-1)OCO4	MIC	Mutant ΔERG6 ΔTOP1		Saccharomyces cerevisiae				>100 µg/mL

Again, the opening 5 rows:

compound | read-out | strain | conditions | agent | dose | method | cell line | value
CO[C@@H]1[C@@H](O[C@@H]2O[C@H](C)[C@@H](O[C@H]3C[C@@](C)(O)[C@@H](O)[C@H](C)O3)[C@H](N(C)C)[C@H]2O)[C@@H](CC=O)C[C@@H](C)[C@@H](O[C@H]2CC[C@H](N(C)C)[C@H](C)O2)/C=C/C=C/C[C@@H](C)OC(=O)C[C@H]1O | EC50 |  |  | Toxoplasma gondii |  |  |  | <4 µg/mL
Cc1cn([C@H]2C[C@H](N=[N+]=[N-])[C@@H](CO)O2)c(=O)[nH]c1=O | inhibition | LAV-2 |  | HIV-2 | 10 µM | virus yield | CEM | 99%
CCOC1c2cc(OC)c(OC)cc2-c2ccc3cc4c(cc3c2N1C)OCO4 | MIC | JHY6-1C |  | Saccharomyces cerevisiae |  |  |  | 3.12 µg/mL
Cc1cn([C@H]2C[C@H](N=[N+]=[N-])[C@@H](COP(=O)(O)OC[C@H]3OC(O)[C@H](O)[C@@H](O)[C@@H]3O)O2)c(=O)[nH]c1=O | inhibition | LAV-Bru | 22 d | HIV-1 | 0.2 µM | RT activity | CEM | 56%
Nc1nc2c(ncn2CCC(CO)CO)c(=O)[nH]1 | EC50 | BVaraU-resistant |  | Varicella zoster virus |  | plaque count | HEL | 16.4 µg/mL

Neighbouring rows are from separate reports. Blank or dashed fields: not listed here. ECn: concentration that inhibits the pathogen or its effect by n%. Zone: diameter of growth inhibition. A number after MIC or MFC names an inhibition level or a share of isolates.